Results of unrelated studies side by side (data: NIAID ChemDB).

Shared fields: growth or infection tests; species: Aspergillus niger; endpoint: MIC100

Lines come from different laboratories, so protocols vary.

SMILES,strain,method,value
Cc1ccc(-c2nc3ccccc3c(=O)n2-c2ccc(C(=O)NN3C(=O)/C(=C/c4ccccc4[N+](=O)[O-])SC3c3ccc(F)cc3)cc2)cc1,MTCC 282,-,500 µg/mL
Nc1nc(N)c2c(=O)c3ccccc3oc2n1,MTCC 282,broth dilution,500 µg/mL
COc1ccc(-c2n[nH]c(COc3nc(C(F)(F)F)nc4ccccc34)n2)cc1,MTCC 282,-,25 µg/mL
Cc1ccc2c(=O)c3c(N)[nH]c(=S)nc3oc2c1,MTCC 282,broth dilution,500 µg/mL
O=c1ccc2c(ccc3nc(N4CCN(c5ccccc5Cl)CC4)sc32)o1,MTCC 282,-,100 µg/mL
Nc1[nH]c(=O)nc2oc3c(Br)cc(Br)cc3c(=O)c12,MTCC 282,broth dilution,1000 µg/mL
CC1/C=C/C=C/C=C/C=C/C(O[C@@H]2O[C@H](C)[C@@H](O)[C@H](N)[C@@H]2O)CC2OC(O)(CC(O)CC(O)C/C=C/C(=O)OC1C)CC(O)C2C(=O)O,CGMCC 3.6478,broth dilution,5.63 µg/mL
FC(F)(F)c1nc(OCc2nc(-c3ccccc3)n[nH]2)c2ccccc2n1,MTCC 282,-,25 µg/mL
O=c1ccc2c(ccc3nc(N4CCN(C(c5ccccc5)c5ccccc5)CC4)sc32)o1,MTCC 282,-,500 µg/mL
Cc1nc(OCc2nc(-c3cccs3)n[nH]2)c2ccccc2n1,MTCC 282,-,12.5 µg/mL
Cc1ccc(-c2nc3ccccc3c(=O)n2-c2ccc(C(=O)N/N=C\c3ccc(F)cc3)cc2)cc1,MTCC 282,-,500 µg/mL
CCC1/C=C/C=C/C=C/C=C/C(OC2OC(C)C(O)C(N)C2O)CC2OC(O)(CC(O)CC(O)C/C=C/C(=O)OC1C)CC(O)C2C(=O)O,CGMCC 3.6478,broth dilution,2.83 µg/mL
Cc1ccc(-c2nc3ccccc3c(=O)n2-c2ccc(C(=O)NN3C(=O)/C(=C/c4ccc([N+](=O)[O-])cc4)SC3c3ccc(F)cc3)cc2)cc1,MTCC 282,-,500 µg/mL
Cn1c(=O)ccc2c3sc(N4CCN(c5ccc(F)cc5)CC4)nc3ccc21,MTCC 282,-,62.5 µg/mL
c1coc(-c2n[nH]c(COc3ncnc4ccccc34)n2)c1,MTCC 282,-,6.25 µg/mL
CN1CCN(c2nc3ccc4oc(=O)ccc4c3s2)CC1,MTCC 282,-,200 µg/mL
Nc1[nH]c(=S)nc2oc3c(Br)cc(Br)cc3c(=O)c12,MTCC 282,broth dilution,1000 µg/mL

2 of the rows above, restated:

SMILES | strain | method | value
Cc1ccc(-c2nc3ccccc3c(=O)n2-c2ccc(C(=O)NN3C(=O)/C(=C/c4ccccc4[N+](=O)[O-])SC3c3ccc(F)cc3)cc2)cc1 | MTCC 282 | - | 500 µg/mL
COc1ccc(-c2n[nH]c(COc3nc(C(F)(F)F)nc4ccccc34)n2)cc1 | MTCC 282 | - | 25 µg/mL

An empty or dashed field is not shown. MIC50, MIC90 and the like: level of inhibition, or share of isolates inhibited.